System: HaCaTa cells
Experiment: CellTiter 96 AQueous One cell proliferation assay of chemotherapy drug-treated keratinocytes with or without antioxidant and cooling
Conditions: extremely high doses, 2 h treatment, read 72 h later (FIG. 5 for 4-OH-CP, FIG. 6 for doxorubicin)

## 4-hydroxycyclophosphamide
  cytotoxicity of the drug in keratinocytes: total cytotoxicity (complete death)

Source: patent US11077088B2, “Composition and apparatus for treatment of chemotherapy induced alopecia” (Paxman Coolers Ltd, priority 2016, dated 2021)
